Measured values from several laboratories, pooled; numbers as filed in NIAID ChemDB.

Common to all: host cell toxicity; cells: PBMC; endpoint: CC50

Lines come from different laboratories, so protocols vary.

CC(C)Nc1nc(N)nc2c1ncn2[C@H]1CO[C@@H](CO)O1 ; method: MTT ; result: 97.3 µM
CCc1nc2sccn2c1C(=O)c1ccco1 ; result: >100 µM
Cc1cn([C@H]2C[C@H](N=[N+]=[N-])[C@@H](CO)O2)c(=O)[nH]c1=O ; result: >0.08 µM
Nc1cccc(-c2c3nc(c(-c4cccc(N)c4)c4ccc([nH]4)c(-c4cccc(N)c4)c4nc(c(-c5cccc(N)c5)c5ccc2[nH]5)C=C4)C=C3)c1 ; result: >100 µM
Nc1ncnc2c1ncn2[C@H]1CC[C@](OCP(=O)(O)O)(C(F)(F)F)C1 ; method: MTT ; result: 90 µM
Cc1c(-c2c(C)c(=O)c3c(C(C)C)c(=O)c(=O)c(C=O)c-3c2=O)c(O)c2c(C=O)c(O)c(O)c(C(C)C)c2c1O ; result: >100 µM
COc1cc(OC)nc(N2C(=O)CSC2c2c(Cl)cccc2[N+](=O)[O-])n1 ; method: MTT ; result: 37 µg/mL
CC(=O)OC[C@H]1O[C@@H](SCCOP(=O)(OCS[C@@H]2O[C@H](COC(C)=O)[C@@H](OC(C)=O)[C@H](OC(C)=O)[C@H]2OC(C)=O)OC[C@H]2O[C@@H](n3cc(C)c(=O)[nH]c3=O)C[C@@H]2N=[N+]=[N-])[C@H](OC(C)=O)[C@@H](OC(C)=O)[C@@H]1OC(C)=O ; result: >10 µM
Nc1ncnc2c1ncn2[C@@H]1OC[C@](CO)(CCP(=O)(O)O)[C@@H]1F ; method: MTT ; result: 57.5 µM
Oc1cccc(-c2c3nc(c(-c4cccc(O)c4)c4ccc([nH]4)c(-c4cccc(O)c4)c4nc(c(-c5cccc(O)c5)c5ccc2[nH]5)C=C4)C=C3)c1 ; result: 47 µM
CSc1ncnc2c1ncn2[C@H]1CC[C@@H](CO)O1 ; result: 100 µM
Nc1ccn([C@H]2C=C[C@@H](CO)C2)c(=O)n1 ; result: >100 µM
Nc1c(S(=O)(=O)O)cc2c3c(cc(S(=O)(=O)O)cc13)C(=O)N(NC(=O)N/N=C/c1ccc(-c3ccc(/C=N/NC(=O)NN4C(=O)c5cc(S(=O)(=O)O)cc6c(N)c(S(=O)(=O)O)cc(c56)C4=O)cc3)cc1)C2=O ; result: >100 µM
Cc1cc2c(C(C)C)c(O)c(O)c(/C=N/O)c2c(O)c1-c1c(C)cc2c(C(C)C)c(O)c(O)c(/C=N/O)c2c1O ; result: >100 µM
O=c1[nH]cnc2c1ncn2[C@H]1CC[C@@H](CO)O1 ; result: >100 µM
CC(C)OC(=O)CCc1ccccc1OP(=O)(N[C@@H](C)C(=O)OC(C)C)OC[C@H]1O[C@@H](n2cnc3c(N)nc(N)nc32)[C@](C)(O)[C@@H]1O ; result: >100 µM
COc1cccc(OC)c1-c1c2nc(c(-c3c(OC)cccc3OC)c3ccc([nH]3)c(-c3c(OC)cccc3OC)c3nc(c(-c4c(OC)cccc4OC)c4ccc1[nH]4)C=C3)C=C2 ; result: >100 µM
Cc1cc2c(C(C)C)c(O)c(O)c(C=Nc3ccc(C(=O)O)cc3)c2c(O)c1-c1c(C)cc2c(C(C)C)c(O)c(O)c(C=Nc3ccc(C(=O)O)cc3)c2c1O ; result: >100 µM
CCOc1ccc(-c2c3nc(c(-c4ccc(OCC)cc4)c4ccc([nH]4)c(-c4ccc(OCC)cc4)c4nc(c(-c5ccc(OCC)cc5)c5ccc2[nH]5)C=C4)C=C3)cc1 ; result: >100 µM
CCCC(=O)OC[C@@H]1C=C[C@H](n2cc(F)c(N)nc2=O)O1 ; result: >100 µM
Cc1cn([C@H]2C[C@@H](CO)[C@@H](COC(c3ccccc3)(c3ccccc3)c3ccccc3)O2)c(=O)[nH]c1=O ; method: trypan blue ; result: >100 µM
S=C(NCCc1ccc(Br)cc1)Nc1ccc(Br)cn1 ; result: >100 µM
CCc1cn([C@H]2C=C[C@@H](CO)O2)c(=O)[nH]c1=O ; result: >100 µM
Oc1cccc(O)c1-c1c2nc(c(-c3c(O)cccc3O)c3ccc([nH]3)c(-c3c(O)cccc3O)c3nc(c(-c4c(O)cccc4O)c4ccc1[nH]4)C=C3)C=C2 ; result: 74 µM
COc1nc(N)nc2c1ncn2[C@H]1CO[C@@H](CO)O1 ; method: MTT ; result: >100 µM
CCOC(=O)CCc1ccccc1O[P@](=O)(N[C@@H](C)C(=O)OC(C)C)OC[C@H]1O[C@@H](n2cnc3c(N)nc(N)nc32)[C@](C)(O)[C@@H]1O ; result: >100 µM
CCc1nc2ccccn2c1C(=O)c1ccco1 ; method: MTT ; result: >100 µM
OC[C@@H]1CC[C@H](n2cnc3c(Cl)ncnc32)O1 ; result: 100 µM
O=C(OC[C@H]1O[C@@H](n2cc(C(=O)Nc3ccc(Cl)cc3)c(=O)c3cc(Cl)ccc32)[C@H](OC(=O)c2ccccc2)[C@@H]1OC(=O)c1ccccc1)c1ccccc1 ; method: XTT ; result: >1000 µM
Cc1ccc(C)n1-c1ccc(C(=O)O)c(O)c1 ; method: trypan blue ; result: 305.6 µg/mL
COc1ccc(-c2c3nc(c(-c4ccc(OC)cc4OC)c4ccc([nH]4)c(-c4ccc(OC)cc4OC)c4nc(c(-c5ccc(OC)cc5OC)c5ccc2[nH]5)C=C4)C=C3)c(OC)c1 ; result: >100 µM
CC(C)OC(=O)OCOP(=O)(CO[C@H](C)Cn1cnc2c(N)ncnc21)OCOC(=O)OC(C)C ; result: 29 µM
OC[C@@H]1CC[C@H](n2cnc3c(NCc4ccccc4)ncnc32)O1 ; result: ~10 µM
CC(=O)OC[C@H]1O[C@@H](SCCOP(=O)(OCCS[C@@H]2O[C@H](CO)[C@@H](O)[C@H](O)[C@H]2O)OC[C@H]2O[C@@H](n3cc(C)c(=O)[nH]c3=O)C[C@@H]2N=[N+]=[N-])[C@H](OC(C)=O)[C@@H](OC(C)=O)[C@@H]1OC(C)=O ; result: >10 µM
Nc1c(S(=O)(=O)O)cc2c3c(cc(S(=O)(=O)O)cc13)C(=O)N(NC(=O)N/N=C\c1ccc(-c3ccc(C=O)cc3)cc1)C2=O ; result: >100 µM
CC1(CSc2ccc(Cl)cc2)COC2(C[C@H]3CC(=O)C[C@H]3C2)OO1 ; method: MTT ; result: >100 µM
CN(C)c1cccc2c(S(=O)(=O)N3CCSC3c3cccnc3)cccc12 ; result: 2080 µM
Nc1ncnc2c1ncn2CCOCP(=O)(O)O ; method: MTT / absorbance ; result: >100 µM
CCCCCCCCCCCCCCCC(=O)OCC(CO)(CO)NC(=O)CNC(=O)CCC(=O)OC[C@H]1O[C@@H](n2cc(C)c(=O)[nH]c2=O)C[C@@H]1N=[N+]=[N-] ; result: 27 µM
Cc1cn([C@H]2CC[C@@H](CO)O2)c(=O)[nH]c1=O ; result: >100 µM
C[C@]1(CCP(=O)(O)O)CO[C@@H](n2cnc3c(=O)[nH]c(N)nc32)C1 ; result: >100 µM
Nc1nc2c(ncn2[C@H]2CO[C@@H](CO)O2)c(=O)[nH]1 ; result: >500 µM
Oc1ccccc1-c1c2nc(c(-c3ccccc3O)c3ccc([nH]3)c(-c3ccccc3O)c3nc(c(-c4ccccc4O)c4ccc1[nH]4)C=C3)C=C2 ; result: 50 µM
Nc1cc(Cl)nc(SCc2ccccc2)n1 ; result: >10 µM
Nc1nc(=O)n([C@@H]2CS[C@H](CO)O2)cc1F ; method: MTT ; result: >12.1 µM
CCc1nc2ccccn2c1C(=O)c1cccs1 ; method: MTT ; result: 120 µM
CCc1cn([C@H]2CC[C@@H](CO)O2)c(=O)[nH]c1=O ; result: >100 µM
CC(=O)Oc1c(-c2c(C)cc3c(C(C)C)c(O)c(O)c(C#N)c3c2OC(C)=O)c(C)cc2c(C(C)C)c(O)c(O)c(C#N)c12 ; result: >100 µM
CCOC(=O)CCc1ccccc1OP(=O)(N[C@@H](C)C(=O)OCC)OC[C@H]1O[C@@H](n2cnc3c(N)nc(N)nc32)[C@](C)(O)[C@@H]1O ; result: >100 µM
S=C(NCCN1CCCCC1)Nc1ccc(Br)cn1 ; result: >100 µM
CN=C1CN=C(c2ccc[nH]2)c2cc(Cl)ccc2N1 ; result: >40 µM
Clc1ccccc1-c1nc2ccccn2c1NC1CCCCC1 ; method: ATP / luminescence ; result: >10 µM
Cc1cn([C@H]2C=C[C@@H](CO)O2)c(=O)[nH]c1=O ; result: 28 µM
Cc1cn([C@H]2C[C@H](N=[N+]=[N-])[C@@H](CO)O2)c(=O)[nH]c1=O ; result: 100 µM
O=c1cc(-c2ccccc2)oc2cc(O)c(O)c(O)c12 ; result: 54 µM
CCOC(=O)CCc1ccccc1O[P@@](=O)(N[C@@H](C)C(=O)OC(C)C)OC[C@H]1O[C@@H](n2cnc3c(N)nc(N)nc32)[C@](C)(O)[C@@H]1O ; result: >100 µM
CC(C)CN(C[C@@H](O)[C@H](Cc1ccccc1)NC(=O)[C@H](CC(N)=O)NC(=O)c1ccc2ccccc2n1)C(=O)NC(C)(C)C ; result: >100 µg/mL
CCCCC1(CCCC)OCC(C)(CS(=O)(=O)c2ccc(Cl)cc2)OO1 ; method: MTT ; result: >100 µM
Cc1cn([C@H]2C[C@@H](CCl)[C@@H](CO)O2)c(=O)[nH]c1=O ; method: trypan blue ; result: >100 µM
Nc1ccccc1-c1c2nc(c(-c3ccccc3N)c3ccc([nH]3)c(-c3ccccc3N)c3nc(c(-c4ccccc4N)c4ccc1[nH]4)C=C3)C=C2 ; result: >200 µM
CC(C)Nc1cccnc1N1CCN(C(=O)c2cc3cc(NS(C)(=O)=O)ccc3[nH]2)CC1 ; result: >100 µM
CN(C)c1ncnc2c1ncn2[C@H]1CC[C@@H](CO)O1 ; result: 100 µM
Nc1ccn([C@H]2C=C[C@@H](CO)O2)c(=O)n1 ; result: 65 µM
OC[C@@H]1CC[C@H](n2cnc3c(=S)nc[nH]c32)O1 ; result: 100 µM
Cn1c(N)nc2c(ncn2[C@H]2CO[C@@H](CO)O2)c1=O ; method: MTT ; result: >100 µM
C1=Cc2nc1c(-c1ccc(-n3cccc3)cc1)c1ccc([nH]1)c(-c1ccc(-n3cccc3)cc1)c1nc(c(-c3ccc(-n4cccc4)cc3)c3ccc([nH]3)c2-c2ccc(-n3cccc3)cc2)C=C1 ; result: >100 µM
CC1(C)Oc2ccc3ccc(=O)oc3c2[C@@H](OC(=O)C23CCC(C)(C(=O)O2)C3(C)C)[C@H]1OC(=O)C12CCC(C)(C(=O)O1)C2(C)C ; result: 4–20 µg/mL
CCNc1nc(N)nc2c1ncn2[C@H]1CO[C@@H](CO)O1 ; method: MTT ; result: 99.5 µM
COc1c(OC)c2c3c(c(-c4c(C)cc5c(C(C)C)c(OC)c(OC)c6c5c4OC6=O)c(C)cc3c1C(C)C)OC2=O ; result: >100 µM
COc1cc(OC)nc(N2C(=O)CSC2c2c(Cl)cccc2Cl)n1 ; method: MTT ; result: 46 µg/mL
Nc1nc(=O)n([C@H]2C=C[C@@H](CO)C2)cc1F ; result: >100 µM
O=c1ccn([C@H]2C=C[C@@H](CO)O2)c(=O)[nH]1 ; result: >100 µM
C[C@]1(/C=C/P(=O)(O)O)CO[C@@H](n2cnc3c(=O)[nH]c(N)nc32)C1 ; result: >100 µM
Cc1cn([C@H]2C[C@H](N=[N+]=[N-])[C@@H](CO)O2)c(=O)[nH]c1=O ; result: >100 µM
Cc1cn([C@H]2C[C@H](N=[N+]=[N-])[C@@H](COP(=O)(OCCS[C@@H]3O[C@H](CO)[C@@H](O)[C@H](O)[C@H]3O)OCCS[C@@H]3O[C@H](CO)[C@@H](O)[C@H](O)[C@H]3O)O2)c(=O)[nH]c1=O ; result: >10 µM

For reference, 7 entries again:

smiles | method | result
Nc1ncnc2c1ncn2[C@H]1CC[C@](OCP(=O)(O)O)(C(F)(F)F)C1 | MTT | 90 µM
CCc1cn([C@H]2CC[C@@H](CO)O2)c(=O)[nH]c1=O |  | >100 µM
CN(C)c1ncnc2c1ncn2[C@H]1CC[C@@H](CO)O1 |  | 100 µM
CC(=O)OC[C@H]1O[C@@H](SCCOP(=O)(OCCS[C@@H]2O[C@H](CO)[C@@H](O)[C@H](O)[C@H]2O)OC[C@H]2O[C@@H](n3cc(C)c(=O)[nH]c3=O)C[C@@H]2N=[N+]=[N-])[C@H](OC(C)=O)[C@@H](OC(C)=O)[C@@H]1OC(C)=O |  | >10 µM
Cn1c(N)nc2c(ncn2[C@H]2CO[C@@H](CO)O2)c1=O | MTT | >100 µM
Nc1ccccc1-c1c2nc(c(-c3ccccc3N)c3ccc([nH]3)c(-c3ccccc3N)c3nc(c(-c4ccccc4N)c4ccc1[nH]4)C=C3)C=C2 |  | >200 µM
CCc1nc2ccccn2c1C(=O)c1ccco1 | MTT | >100 µM

CCn is the concentration with n% toxicity to the cells. a–b is a range or a potency band. Blank or dashed fields: not listed here.